Measured values from several laboratories, pooled; numbers as filed in NIAID ChemDB.

Shared fields: whole-cell or culture tests; agent: Adenovirus; measure: EC50

Neighbouring rows are from separate reports.

C[C@H]1[C@H](C)CC[C@]2(C(=O)O)CC[C@]3(C)C(=CC[C@@H]4[C@@]5(C)CC[C@H](O)C(C)(C)[C@@H]5CC[C@]43C)[C@H]12 ; cell line: BCC-1/KMC ; strain or isolate: TYPE 8 ; read by: cytopathic effect ; result: >20 µg/mL
Nc1nc2c(ncn2COCCO)c(=O)[nH]1 ; cell line: HEL ; strain or isolate: TYPE 2 ; result: >1000 µM
CN(C)c1nsc(-c2ccccc2)c1C#N ; cell line: HEP-2 ; strain or isolate: TYPE 2 ; read by: plaque count ; result: >15 µg/mL
Nc1ccn([C@H]2CC[C@@H](CO)O2)c(=O)n1 ; cell line: HEL ; strain or isolate: TYPE 2 ; result: 2 µM
O=c1[nH]c(=O)n([C@H]2C[C@H](O)[C@@H](CO)O2)cc1/C=C/Br ; cell line: VERO ; strain or isolate: TYPE 2 ; read by: plaque count ; result: 100 µM
Nc1nc2c(ncn2C[C@]2(CO)C[C@H]2CO)c(=O)[nH]1 ; cell line: HEL ; strain or isolate: TYPE 2 ; read by: PCR ; result: 614 µM
CCOC(=O)CSc1nsc(-c2ccccc2)c1C#N ; cell line: HEP-2 ; strain or isolate: TYPE 2 ; read by: plaque count ; result: >200 µg/mL
Nc1cc(OC[C@@H](CO)OCP(=O)(O)O)nc(N)n1 ; cell line: HEL ; strain or isolate: TYPE 2 ; read by: PCR ; result: 13 µM
COc1cc(C(=O)O)ccc1O ; cell line: BCC-1/KMC ; strain or isolate: TYPE 3 ; read by: cytopathic effect ; result: >200 µg/mL
O=C(O)P(=O)(O)O ; cell line: HEL ; strain or isolate: TYPE 2 ; read by: PCR ; result: >500 µM
OCC1=C[C@@H](O)[C@@H]2C=CO[C@@H](O[C@@H]3O[C@H](CO)[C@@H](O)[C@H](O)[C@H]3O)[C@H]12 ; cell line: BCC-1/KMC ; strain or isolate: TYPE 3 ; read by: cytopathic effect ; result: >200 µg/mL
Nc1ccn(C[C@@H](CO)OCP(=O)(O)O)c(=O)n1 ; strain or isolate: 13306 (TYPE 8) ; read by: cytopathic effect ; result: 13 µg/mL
O=c1cc(-c2ccc(O)c(O)c2)oc2cc(O)cc(O)c12 ; cell line: BCC-1/KMC ; strain or isolate: TYPE 8 ; read by: cytopathic effect ; result: >25 µg/mL
Nc1ncnc2c1ncn2C[C@@H](CO)OCP(=O)(O)O ; strain or isolate: adenoid 75 (TYPE 5) ; read by: cytopathic effect ; result: 8 µg/mL
CSc1nsc(-c2ccccc2)c1C(=O)O ; cell line: HEP-2 ; strain or isolate: TYPE 2 ; read by: plaque count ; result: >500 µg/mL
O=C(O)/C=C/c1ccc(O)c(O)c1 ; cell line: BCC-1/KMC ; strain or isolate: TYPE 11 ; read by: cytopathic effect ; result: >200 µg/mL
N#Cc1c(N2CCCC2)nsc1-c1ccccc1 ; cell line: HEP-2 ; strain or isolate: TYPE 2 ; read by: plaque count ; result: >7 µg/mL
Nc1ccnc2c1ncn2[C@H]1C=C[C@@H](OCP(=O)(O)O)O1 ; strain or isolate: TAK (TYPE 41) ; read by: cytopathic effect ; result: 6 µg/mL
Nc1ncnc2c1ncn2C[C@@H](CO)OCP(=O)(O)O ; cell line: HEL ; strain or isolate: TYPE 2 ; read by: PCR ; result: 0.63 µM
N#Cc1c(N2CCOCC2)nsc1-c1ccccc1 ; cell line: HEP-2 ; strain or isolate: TYPE 2 ; read by: plaque count ; result: >1 µg/mL

Repeating the final 3 entries:

{"compound": "Nc1ccnc2c1ncn2[C@H]1C=C[C@@H](OCP(=O)(O)O)O1", "strain or isolate": "TAK (TYPE 41)", "read by": "cytopathic effect", "result": "6 µg/mL"}
{"compound": "Nc1ncnc2c1ncn2C[C@@H](CO)OCP(=O)(O)O", "cell line": "HEL", "strain or isolate": "TYPE 2", "read by": "PCR", "result": "0.63 µM"}
{"compound": "N#Cc1c(N2CCOCC2)nsc1-c1ccccc1", "cell line": "HEP-2", "strain or isolate": "TYPE 2", "read by": "plaque count", "result": ">1 µg/mL"}

ECn: concentration that inhibits the pathogen or its effect by n%.